Patent US20170313764A1 (ACADEMISCH MEDISCH CENTRUM, published 2017)

Molecular target: soluble E2-his6-sortase tag from HCV isolate H77 (genotype 1a) (Hepatitis C virus genotype 1a, strain …, UniProt P27958 384-717)

B1: AT15-009 (antibody, V domains shown)
VH: QVLLVQSGAEVKKPGSSVKVSCKASGGTFSTYAISWLRQAPGQGPEWMGGIVPMFGITNYAQHFQGRITITADKSTSTAYMELSSLGSEDTAVYFCARDLRSGGTFFSRGFDLWGPGTKVTVSS
VL: EIVLTQSPGTLSLSPGERATLSCRASQSVSSSFLTWYQQKPGQAPRLLIFDASTRATGVPDRFSGSGSGTDFTLTISRLEPEDFGVYYCQQFDSSPTFGGGTKVEIK
In the case of B1, the Kd is reported as 242 pM.
